# Test results: patent US20170073375A1
# B1: HB36.5 (designed binder)
# chain: MSNAMDGQQLNRLLLEWIGAWDPFGLGKDAYDYEAAEVLKAVYETESAFDLAMRIHWIYNFAFKRQIPFAHAQKLARRLLELKQAASSPLP
# Tests used:
# [1] = target: Hemagglutinin (HA) of A/Adachi/2/1957 H2N2 (Influenza A virus A/Adachi/2/1957 (H2N2))
# [2] = target: Hemagglutinin (HA) of A/Vietnam/1203/2004 H5N1 (Influenza A virus A/Vietnam/1203/2004 (H5N1))
binder,measurement,setting,value
B1,Kd,[1],712 nM
same,Kd,[2],225 nM
